Source: patent US6071908A (priority 1995, dated 2000)

Legend:
UV4 cells [1] = assay: HPLC/bioassay of irradiated solution of compound 1; conditions: sodium formate, dose corresponding to one reducing equivalent (FIG. 2)
[2] = Assay 1: radiolytic reduction of prodrug in formate buffer (or other solution), products analysed by HPLC
UV4 cells [3] = assay: Cytotoxicity against UV4 cells, 4 hr aerobic exposure; type: cell-based; conditions: read-out: IC50, P (unirradiated prodrug); UV4, 4 hr aerobic exposure; mean ± SEM
UV4 cells [4] = conditions: αMEM, prodrug concentration 50
[5] = system: hypoxic mammaliam cells in culture; conditions: cited from earlier work
SKOV3 cells = assay: Cytotoxicity against SKOV3 cells, 4 hr aerobic exposure; type: cell-based, human; conditions: read-out: IC50, P (unirradiated prodrug); SKOV3, 4 hr aerobic exposure; mean ± SEM

## bis(3-methyl-2,4-pentanedionato)(N,N-bis(2-chloroethyl)ethylenediamine)cobalt (III) chloride
UV4 cells [1]
  bioactivity of HPLC eluate after irradiation: loss of bioactivity in the region corresponding to the parent, and the appearance of a new peak of bioactivity corresponding in retention time to authentic DCE
[2]; 50 μM in formate (FIG. 1)
  effect of oxygen on radiolytic consumption of complex and formation of DCE and Co(II)(H2O)6^2+: inhibited by oxygen
[2]; culture medium (αMEM) (FIG. 1)
  release of DCE (2) and Co(II)(H2O)6^2+ by irradiation in culture medium: also observed in culture medium
[2]; prodrug 50 μM in sodium formate pH 7.0, anoxic, cobalt-60, HPLC
  G(+E), anoxic, Assay 1 (yield of effector): 0.76 μM/Gy
UV4 cells [3]
  IC50: 0.3 µM
UV4 cells [4]
  G(+E), anoxic, Assay 2 (yield of effector): 0.15 μM/Gy
[5]
  selective toxicity to hypoxic cells: selectively toxic to hypoxic mammaliam cells in culture
SKOV3 cells
  IC50: 20 µM
